According to ChEMBL document CHEMBL4118244, “Design, synthesis and biological evaluation of benzofuran appended benzothiazepine derivatives as inhibitors of butyrylcholinesterase and antimicrobial agents” (Bioorg Med Chem, 2018):

Tested on: Shigella dysenteriae
Experiment: Antibacterial activity against Shigella dysenteriae PTCC 1188
Format: functional

**Q.** How did the MIC turn out when GENTAMICIN was run?
**A.** The MIC was 0.5 µg/mL.
